Among the data in article PMC11345844, “Non-Covalent Inhibitors of SARS-CoV-2 Papain-Like Protease (PLpro): In Vitro and In Vivo Antiviral Activity” (Journal of Medicinal Chemistry, 2024) are EC50 values, retold here.

In the test the test system is SARS-CoV-2 Omicron BA.1. As to the kind of experiment: microbe, parasite or virus in culture. The note with it: Severe acute respiratory syndrome coronavirus 2, 48 h, read-out: EC50 (antiviral activity toward BA.1).

Usually EC50 stands for the concentration that produces a half-maximal response.

Consider `Cc1ccc(NC2CNC2)cc1C(=O)N[C@H](C)c1cccc(-c2ccc(CNC3CCCC3)s2)c1` [Compound 10], for which the EC50 was 2.5 ± 0.15 µM.
